Laboratory results from article PMC8470104, “Anti-Metatype Antibody Screening, Sandwich Immunoassay Development, and Structural Insights for β-Lactams Based on Penicillin Binding Protein” (Molecules, 2021).

System: PBP2x*
Conditions: in milk

CO/N=C(\C(=O)N[C@@H]1C(=O)N2C(C(=O)O)=C(CSc3nc(=O)c(=O)[nH]n3C)CS[C@H]12)c1csc(N)n1 [CTRX, Cefatriaxone]
LOD of sandwich ELISA: 1.65 ng/mL | working range of sandwich ELISA: 1 to 1000 ng/mL
